Some compounds may have been tested in ways that are not shown here.
System: Trypanosoma brucei brucei
Assay: Antiparasitic activity against Trypanosoma brucei brucei BF427 assessed as growth inhibition after 48 hrs by Alamar blue assay

Q: `O=C(c1ccc(Cl)cc1Cl)N(c1ccc(Cl)cc1)C1CCNCC1` was tested. Which EC50 did it give?
A: 4.11 µM
